Results taken from PMC9637222, “Autoinducer-2 and bile salts induce c-di-GMP synthesis to repress the T3SS via a T3SS chaperone” (Nature Communications, 2022).
Several values for one entry are separate records, joined by “and”; a condition that tells them apart may be missing. Equal values may be shown once.

Test system: promoters of sopB, sopE2, and the sicAsipBCDA operon
Assay: Promoter-lacZ fusion β-galactosidase assay
Conditions: 1 μM; for β-Galactosidase (Miller units): strain ΔyedQ, Fig. 4k; for Repression of promoter activities of sopB, sopE2, and sicAsipBCDA (in words): ΔyedQ mutant

Compound | β-Galactosidase (Miller units) (PsicAsipBCDA) | β-Galactosidase (Miller units) (PsopB) | β-Galactosidase (Miller units) (PsopE2) | Repression of promoter activities of sopB, sopE2, and sicAsipBCDA (in words)
C[C@H](CCC(=O)NCCS(=O)(=O)O)[C@H]1CC[C@H]2[C@@H]3[C@H](O)C[C@@H]4C[C@H](O)CC[C@]4(C)[C@H]3C[C@H](O)[C@]12C [taurocholate] | 1648.43 Miller units and 1718.87 Miller units and 1770.27 Miller units | 861.75 Miller units and 866.02 Miller units and 837.86 Miller units | 1038.86 Miller units and 1126.56 Miller units and 1128.41 Miller units | completely abolished
C[C@H](CCC(=O)NCCS(=O)(=O)O)[C@H]1CC[C@H]2[C@@H]3CC[C@@H]4C[C@H](O)CC[C@]4(C)[C@H]3C[C@H](O)[C@]12C [taurodeoxycholate] | – | – | – | completely abolished
